Data source: PubChem BioAssay AID624099 (ICCB-Longwood, 2012)
Shown is an unselected part of about 21,000 reagents tested. 497 of them (2.4%) count as active. 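Higher z means weaker E2 silencing; only reporter increases were scored, and knock-downs that hurt cell survival may mask genuine repressor factors.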 A number with no mark means an inactive call.

Screen: 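Human genes that papillomavirus E2 requires to repress the HPV18 LCR promoter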 (primary screen)
System: human C33A cervical carcinoma cells (HPV-negative) stably expressing BPV1 E2 and an HPV18 LCR luciferase reporter
Reagent: siRNA pool against human genes, 40 nM
Timing: 72 h
Detection: 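HPV18 LCR reporter light per well, converted to plate-wise z-scores that exclude control wells, and averaged over triplicate plates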
Scale: mean z-score and z-score: higher = stronger reporter signal, weaker E2 silencing
Call rule: 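Hit if mean z-score reaches 2 and two or more of three replicate z-scores also reach 2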

no.	target gene	mean z-score	z-score, replicate A	z-score, replicate B	z-score, replicate C
1	SART3	-1.07	-1.29	-1.06	-0.85
2	WDR74	-0.87	-0.89	-0.72	-1.02
3	SLC25A14	-0.31	-0.3	-0.24	-0.41
4	PIGL	2.22 (active)	1.75	2.2	2.71
5	PSMB6	-0.21	-0.02	-0.38	-0.22
6	SLC32A1	0.91	0.78	0.68	1.27
7	MAGEB2	0.37	0.41	0.39	0.3
8	KDSR	-0.25	-0.29	-0.25	-0.2
9	MMP23A	-0.86	-0.84	-0.68	-1.06
10	LMF1	-0.45	-0.53	-0.51	-0.32
11	TMEM44	-0.97	-1.33	-0.78	-0.79
12	SIGLEC11	-1.31	-1.32	-1.15	-1.46
13	CNGA2	-1.23	-1.06	-1.35	-1.29
14	MOB4	-0.71	-0.66	-0.71	-0.76
15	PNPLA8	-0.2	-0.16	-0.31	-0.13
16	LOC389642 (retired record)	0.67	0.62	0.99	0.39
17	LOC400888 (retired record)	-0.35	-0.62	0.04	-0.48
18	SPMIP5	-0.16	-0.82	0.11	0.22
19	ICE2	-0.9	-1.24	-0.69	-0.77
20	PSMB7	-0.62	-0.62	-0.75	-0.48
21	MRPS7	2.24		1.97	2.52
22	STEAP1B	1.88	1.09	2.62	1.93
23	LAD1	0.77	1.04	0.48	0.77
24	MTMR11	-0.37	0.27	-0.41	-0.98

Single entries from the list.
For “z-score, replicate B”, SPMIP5 has 0.11
Under “mean z-score”, MAGEB2 is entered as 0.37
LOC400888 (retired record), z-score, replicate A = -0.62
For “z-score, replicate B”, SART3 shows -1.06
TMEM44, z-score, replicate B: -0.78

The results go on.
no.	target gene	mean z-score	z-score, replicate A	z-score, replicate B	z-score, replicate C
25	HCST	-2.05	-1.82	-2.12	-2.19
26	MED27	-2.29	-2.08	-2.4	-2.4
27	PATL1	0.07	0.19	-0.05	0.08
28	AP1G1	1.59	1.78	1.57	1.41
29	LOC340477 (retired record)	-0.45	-0.6	-0.27	-0.5
30	LINC01559	0.08	-0.12	-0.08	0.44
31	LOC346545 (retired record)	-0.76	-1.07	-0.35	-0.84
32	FEV	1.53	1.39	1.56	1.64
33	CMTM1	-0.55	-0.59	-0.8	-0.28
34	PLEKHA4	2.01	1.85	2.34	1.86
35	SPECC1L	0.25	-0.17	0.41	0.51
36	PRAMEF1	0.61	0.76	0.47	0.61
37	CALML4	-0.89	-0.85	-0.77	-1.06
38	TMPRSS11D	0.97	0.72	0.8	1.4
39	TMEM154	-0.67	-0.73	-0.39	-0.88
